Laboratory results as given in patent publication EP3464307B1, “BISPHOSPHONATE QUINOLONE CONJUGATES AND USES THEREOF” (dated 2026).
≈ marks a conversion by molar mass, not a printed value.

Experiments:
S. aureus ATCC6538 = experiment: Survival of biofilm bacteria after 24 hrs on pretreated, rinsed HA discs; conditions: even at very high concentrations
[1] = system: Aggregatibacter actinomycetemcomitans (Aa; wild-type rough strain D7S-1; serotype a); experiment: MIC assay against planktonic Aa; conditions: Example 1
[2] = system: biofilms of S. aureus strain ATCC-6538; experiment: Susceptibility testing against preformed biofilms on HA discs; conditions: all tested concentrations versus control, Kruskal-Wallis test
[3] = system: biofilms of Aggregatibacter actinomycetemcomitans (Aa; wild-type rough strain D7S-1; serotype a); experiment: Jawbone peri-implant osteomyelitis animal model, first experiment; conditions: for activity compared to ciprofloxacin alone in multiple doses: conjugate 10 mg/kg single dose versus ciprofloxacin 30 mg/kg total
[4] = system: biofilms of Aggregatibacter actinomycetemcomitans strain D7S-5; experiment: Susceptibility testing against biofilms grown on HA; conditions: result in words
[5] = system: biofilms of S. aureus strain ATCC-6538; experiment: Susceptibility testing against preformed biofilms on polystyrene; conditions: polystyrene substrate
[6] = system: biofilms of P. aeruginosa strain ATCC-15442; experiment: as above; conditions: polystyrene substrate
[7] = system: S. aureus strain ATCC-6538; experiment: Time-kill assay (CLSI); conditions: planktonic
MRSA strain MR4-CIPS = experiment: Time-kill assay (CLSI); conditions: planktonic
[8] = system: biofilms of Aggregatibacter actinomycetemcomitans (Aa; wild-type rough strain D7S-1; serotype a); experiment: Jawbone peri-implant osteomyelitis animal model, second animal experiment

In the case of O=C(O)c1cn(C2CC2)c2cc(N3CCN(C(=O)c4ccc(CC(P(=O)(O)O)P(=O)(O)O)cc4)CC3)c(F)cc2c1=O, the “inhibition of biofilm growth on pretreated HA” value (S. aureus ATCC6538) was “no significant antimicrobial activity” and the “inhibition of biofilm growth on pretreated HA” value (S. aureus ATCC6538; listed as BAC (11)) was “did not inhibit the growth of biofilms”.

In the case of O=C(O)c1cn(C2CC2)c2cc(N3CCNCC3)c(F)cc2c1=O, the “MIC^90” value [1] was 2 µg/mL (≈ 6.04 µM), the “bactericidal activity and reduction of CFUs against established biofilms on HA” value (from here on “bactericidal activity and reduction”) [2] was “statistically significant bactericidal activity” and the “log reduction in bacterial count (CFU per gram of tissue)” value ([3]; ciprofloxacin 10 mg/kg 3x/week (30 mg/kg total), intraperitoneal) was 1 log.

O=C(O)c1cn(C2CC2)c2cc(N3CCN(C(=O)Oc4ccc(CC(P(=O)(O)O)P(=O)(O)O)cc4)CC3)c(F)cc2c1=O was tested, and the “antimicrobial activity against Aa biofilms grown on HA” value [4] was “effective antimicrobial activity”, the MBIC90 [5] was “no MBIC90 was observed” and the MBIC90 [6] was “no MBIC90 was observed”. For the same compound, the “time to bactericidal activity / evident prevention of bacterial growth at half the MIC” value ([7]; 1/2x MIC, listed as conjugate) was at most 1 h, the “time to bactericidal activity at the established MIC” value ([7]; 1x MIC) was at most 1 h and the “time to bactericidal activity / evident prevention of bacterial growth at half the MIC” value (MRSA strain MR4-CIPS; 1/2x MIC, listed as conjugate) was at most 1 h. The “time to bactericidal activity at the established MIC” value (MRSA strain MR4-CIPS; 1x MIC) was at most 1 h, the “bactericidal activity and reduction” value ([2]; listed as BP-ciprofloxacin) was “statistically significant bactericidal activity” and the “bactericidal activity and reduction” value ([2]; listed as conjugate) was “statistically significant bactericidal activity”. For the same compound, the recoverable bacteria ([3]; conjugate 0.3 mg/kg x3 (0.9 mg/kg total), intraperitoneal) was “no recoverable bacteria”, the “activity compared to ciprofloxacin alone in multiple doses” value (from here on “activity compared to ciprofloxacin alone”) [3] was “nearly an order of magnitude greater activity” and the “activity compared to ciprofloxacin alone” value ([3]; listed as BCC (6)) was “approximately as effective as ciprofloxacin”. For the same compound, the “activity compared to ciprofloxacin alone” value ([3]; listed as BCC (compound 6)) was “an order of magnitude greater activity”, the “greater bactericidal activity than the multiple dosing regimen of ciprofloxacin” value ([3]; conjugate 10 mg/kg single dose versus ciprofloxacin multiple doses) was 1 log and the “log reduction in bacterial count (CFU per gram of tissue)” value ([3]; conjugate 10 mg/kg single dose, intraperitoneal, versus negative control, one week after pharmacotherapy) was 2 log. The “tolerability, adverse events” value ([3]; intraperitoneal dosing, study period) was “no potential systemic toxicity or adverse effects”, the “log units of kill (CFU of Aa from resected peri-implant tissue)” value ([8]; 10 mg/kg single dose, intraperitoneal) was “approximately 6 log units” and the “significance of CFU reduction versus control” value ([8]; multiple low dose 0.3 mg/kg 3x/week, p>0.05) was “not for the multiple low dose group”. For the same compound, the “efficacy for reducing mean CFU/gram of tissue versus control” value ([8]; single high dose 10 mg/kg, unpaired t-test p=0.0005, listed as BCC (6), 10 mg/kg) was “greatest efficacy”.
